Measured values from several laboratories, pooled; numbers as filed in NIAID ChemDB.

All rows: growth or infection tests; agent: Mycobacterium tuberculosis

MIC50, MIC90 and the like: level of inhibition, or share of isolates inhibited.

smiles | method | strain | tested at | read-out | changes | cells | result
NNC(=O)c1ccccc1 | - | Mtb 56 | - | MIC | - | - | 1 µg/mL
N/C(=N\N=C\c1ccc(Cl)c([N+](=O)[O-])c1)c1ccncc1 | - | H37Rv | - | MIC | - | - | >256 µg/mL
COc1ccc(-n2cc(Cn3c4ccccc4c4ccccc43)nn2)cc1 | agar | H37Rv | - | MIC | - | - | 50 µg/mL
CCc1c2c(nc3ccc(OCc4c(F)c(F)c(F)c(F)c4F)cc13)-c1cc3c(c(=O)n1C2)COC(=O)C3(O)CC | resazurin | XDR | - | MIC | Extensively drug-resistant | - | 5.46 µM
CCN(CC)c1ccc(N=Nc2ccc(S(=O)(=O)O)cc2)cc1 | resazurin | H37Rv | - | MIC bound | - | - | >6.25 µg/mL
NNC(=O)c1ccncc1 | resazurin | XDR | - | MIC | - | - | >100 µg/mL
CCc1c2c(nc3ccc(OCc4ccccc4[N+](=O)[O-])cc13)-c1cc3c(c(=O)n1C2)COC(=O)C3(O)CC | resazurin | XDR | - | MIC | Extensively drug-resistant | - | 2.95 µM
CCS/C(N)=N\N=C\c1cccnc1 | - | H37Rv (ATCC 27294) | - | MIC | - | - | >100 µg/mL
NNC(=O)c1ccncc1 | visual reading | H37Rv | - | MIC | - | - | <0.3 µM
CCc1c2c(nc3ccc(OCc4ccccc4Cl)cc13)-c1cc3c(c(=O)n1C2)COC(=O)C3(O)CC | resazurin | H37Rv | - | MIC | - | - | 48.36 µM
COc1ccccc1C(=O)C1N=C(c2ccccc2)OC1=O | BACTEC | H37Rv | - | MIC bound | - | - | >12.5 µg/mL
COc1cc([C@@](O)(CCN(C)C)[C@@H](c2cc(-c3ccc(Cl)cc3)cnc2OC)c2cccc(OC)c2F)cc(OC)n1 | resazurin | H37Rv | - | MIC90 | - | - | 10.47 µM
O=C(Nc1ccc(Cl)cc1)c1cnccn1 | resazurin | ATCC 27294 | - | MIC | - | - | 50 µg/mL
COc1cc(/C=N/N=C(\N)c2ccncc2)cc(OC)c1OC | - | H37Rv | - | MIC | - | - | >256 µg/mL
CC(=O)OC[C@]12CCC(C)=C[C@H]1O[C@@H]1[C@H](O)[C@@H](OC(C)=O)[C@@]2(C)[C@@]12CO2 | resazurin | H37Rv | 6.25 µg/mL | inhibition | - | - | -1%
CCCCCCSc1nc2ccccc2[nH]1 | - | My 331/88 | - | MIC | - | - | 62 µM
CCOC(=O)/C=C/c1ccc(OC)cc1 | resazurin | BTB08-043 | - | MIC | - | - | 242 µM
CCCCOc1ccc(NC(=S)Nc2ccc(N(C)C)cc2)cc1 | - | H37RV #225 | - | MIC | - | - | 3.9 µg/mL
O=C(N=C1N(c2ccccc2)C(=O)C(=O)N1c1ccccc1)c1ccccc1 | BACTEC | H37Rv | - | MIC bound | - | - | >12.5 µg/mL
O=C(Nc1cccc(Cl)c1)c1cnccn1 | resazurin | ATCC 27294 | - | MIC | - | - | >100 µg/mL
CCOC(=O)/C(=C(\N)C1OC(COC(c2ccccc2)(c2ccccc2)c2ccccc2)C2OC(C)(C)OC12)C1CC(=O)N(C)C1=O | BACTEC | H37Rv | 12.5 µg/mL | inhibition | - | - | 9%
CCOC(=O)c1cn(O)nn1 | - | H37Rv | - | MIC | - | - | >12.5 µg/mL
C[C@H]1NCc2cc(-c3ccc4c(=O)c(C(=O)O)cn(C5CC5)c4c3OC(F)F)ccc21 | - | 10 strains | - | MIC90 | - | - | 2 µg/mL
COc1ccc2ccccc2c1/C=N/Nc1cc(C)nc2cc(Cl)ccc12 | - | H37Rv | - | MIC | - | VERO | 6.25 µg/mL
Cc1ccc(CSc2nc3ccccc3[nH]2)cc1 | - | My 331/88 | - | MIC | - | - | >125 µM
NNc1ccnc2ccc(C3CCCCC3)cc12 | - | H37Rv | 12.5 µg/mL | inhibition | - | VERO | 99%
COc1ccc2cc1-c1cc(ccc1O)C[C@H]1c3cc4c(cc3CCN1C)Oc1c(OC)cc3c(c1O4)[C@H](C2)N(C)CC3 | BACTEC | H37Rv | - | MIC | - | - | 3.13 µg/mL
CC1=C(c2c(C)cc(O)c3c2C(=O)C(c2c(O)c4c(C)cccc4oc2=O)=C(c2c(O)c4c(C)cccc4oc2=O)C3=O)C(=O)c2c(O)cccc2C1=O | - | H37Rv (ATCC 27294) | - | MIC | - | - | 2.44 µg/mL
Cc1ccc(NC(=S)N(C)C)cc1Cl | BACTEC | H37Rv | 12.5 µg/mL | inhibition | - | - | 17%
Clc1cc(Cl)c2c(N/N=C/c3ccc4c(c3)OCO4)ccnc2c1 | - | H37Rv | 12.5 µg/mL | inhibition | - | VERO | 4%
C=CCC1(C(C)Cc2ccc(OC)c(OC)c2)CC(OC)C=CC1=O | BACTEC | H37Rv | - | MIC bound | - | - | >12.5 µg/mL
O=C(c1cn(CCBr)nn1)c1cccs1 | - | H37Rv | - | MIC | - | - | <12.5 µg/mL
COc1ccc(N=Nc2sc(N)nc2-c2cccc([N+](=O)[O-])c2)cc1 | BACTEC | H37Rv | - | MIC bound | - | - | >6.25 µg/mL
CCCCOc1ccc2nc(C)cc(N/N=C/c3ccc(OC)c4ccccc34)c2c1 | - | H37Rv | - | MIC | - | VERO | 0.78 µg/mL
COc1cccc(/C=N/N=C(\N)c2ccncc2)c1OC | - | 1481 | - | MIC | - | - | >256 µg/mL
Cc1c(N)c(=O)n(-c2ccccc2)n1C | BACTEC | H37Rv | - | MIC | - | - | ≥12.8 µg/mL
CCc1c2c(nc3ccc(OCc4ccc(F)cc4C(F)(F)F)cc13)-c1cc3c(c(=O)n1C2)COC(=O)C3(O)CC | resazurin | H37Rv | - | MIC | - | - | 21.99 µM
O=[N+]([O-])c1cc(CSc2nc3ccccc3[nH]2)cc([N+](=O)[O-])c1 | - | My 331/88 | - | MIC | - | - | 4 µM
CCCCOc1ccc(NC(=S)Nc2ccc(OCCN(CC)CC)cc2)cc1 | - | 76 | - | MIC | - | - | 62.5 µg/mL
O=C(Nc1ccccc1[N+](=O)[O-])c1cnccn1 | resazurin | ATCC 27294 | - | MIC | - | - | >100 µg/mL
O=[N+]([O-])c1ccc(CSc2nc3ccccc3[nH]2)c([N+](=O)[O-])c1 | - | My 331/88 | - | MIC | - | - | 4 µM
COc1cc([C@](O)(CCN(C)C)[C@@H](c2cc(-c3ccc(Cl)cc3)cnc2OC)c2cccc(OC)c2F)cc(OC)n1 | resazurin | H37Rv | - | MIC90 | - | - | 0.76 µM
OCCCCCn1cc(Cn2c3ccccc3c3ccccc32)nn1 | agar | H37Rv | - | MIC | - | - | 25 µg/mL
CC(=O)Nc1ccc(C(N)=S)cc1 | - | - | - | MIC | - | - | 500 µM
Cc1ccc(C)c(/C=N/N=C(\N)c2ccncc2)c1 | - | 1054 | - | MIC | - | - | 128 µg/mL
CCCCOc1ccc2nccc(NN)c2c1 | - | H37Rv | 12.5 µg/mL | inhibition | - | VERO | 99%
O=[N+]([O-])c1cccc(CSc2nc3ccccc3[nH]2)c1 | - | My 331/88 | - | MIC | - | - | >125 µM
O=C(c1cn[nH]n1)c1ccc(Br)cc1Br | - | H37Rv | - | MIC | - | - | >12.5 µg/mL
Cc1cc(NN)c2c(Cl)cc(Cl)cc2n1 | - | H37Rv | - | MIC | - | VERO | >12.5 µg/mL
CCCC(C)Nc1ccc(C(N)=S)cc1 | - | - | - | MIC | - | - | 150 µM
O=C(Nc1cccc([N+](=O)[O-])c1)c1cnccn1 | resazurin | ATCC 27294 | - | MIC | - | - | >100 µg/mL
CCOC(=O)c1cn[nH]n1 | - | H37Rv | 12.5 µg/mL | inhibition | - | - | 29%
CS/C(N)=N\N=C\c1ccnnc1 | - | H37Rv (ATCC 27294) | - | MIC | - | - | >100 µg/mL
CN(C)c1ccc(N=Nc2ccc(N(C)C)cc2)cc1 | resazurin | H37Rv | 6.25 µg/mL | inhibition | - | - | 21%
CCc1c2c(nc3ccc(OCc4ccccc4Br)cc13)-c1cc3c(c(=O)n1C2)COC(=O)C3(O)CC | resazurin | H37Rv | - | MIC | - | - | 11.13 µM
CC(=O)c1cn(O)nn1 | - | H37Rv | 12.5 µg/mL | inhibition | - | - | 12%
CC1C2C=CC1C(c1c3ccc(=O)c(O)c-3oc3c(O)c(O)ccc13)C2C(=O)O | BACTEC | H37Rv | 12.5 µg/mL | inhibition | - | - | 4%
COc1cc(C(O)(CCN(C)C)C(c2cc(-c3ccccc3C)cnc2OC)c2cccc(OC)c2F)cc(OC)n1 | resazurin | H37Rv | - | MIC90 | - | - | 10 µM
CC1(C)OC2(c3ccccc3)N(c3ccc([N+](=O)[O-])cc3)N=C(c3ccccc3)N2c2ccccc21 | resazurin | H37Rv | 6.25 µg/mL | inhibition | - | - | 59%
Oc1ccc(CCN=C=S)cc1 | visual reading | H37Rv | - | MIC | - | - | 16 µg/mL
O=C(Nc1ccc(F)cc1)c1cnccn1 | resazurin | ATCC 27294 | - | MIC | - | - | >100 µg/mL
N/C(=N\N=C\c1cccc(F)c1)c1ccncc1 | - | 1054 | - | MIC | - | - | 64 µg/mL
COc1ccc(CCN2C(=O)C(=O)N(c3ccc(Cl)c(Cl)c3)C2=O)cc1OC | BACTEC | H37Rv | - | MIC bound | - | - | ≤12.5 µg/mL
Fc1ccc(-n2cc(Cn3c4ccccc4c4ccccc43)nn2)c(F)c1 | agar | H37Rv | - | MIC | - | - | 50 µg/mL
COc1ccc2nc(-c3ccccc3)cc(N/N=C/c3ccc([N+](=O)[O-])o3)c2c1 | - | H37Rv | - | MIC | - | VERO | 12.5 µg/mL
O=C(c1ccccc1)c1cn(-c2cccc3ccccc23)nn1 | - | H37Rv | - | MIC | - | - | >12.5 µg/mL
CCCCCCCC(=O)N1[C@H]2[C@@H]1CN1C3=C(C(=O)C(N)=C(C)C3=O)[C@@H](COC(N)=O)[C@@]21OC | BACTEC | H37Rv | - | MIC bound | - | - | ≤12.5 µg/mL
O=C(c1cn(-c2ccccc2)nn1)c1ccc(Cl)cc1Cl | - | H37Rv | - | MIC | - | - | >12.5 µg/mL
COc1ccc2c(c1)OCC1c3cc(OC)c(OCc4ccccc4)cc3O[C@H]21 | BACTEC | H37Rv | - | MIC bound | - | - | >12.5 µg/mL
CO[C@H]1/C=C/O[C@@]2(C)Oc3c(C)c(O)c4c(O)c(c5c(c4c3C2=O)NC2(CCN(CC(C)C)CC2)N=5)=NC(=O)/C(C)=C\C=C\[C@H](C)[C@H](O)[C@@H](C)[C@@H](O)[C@@H](C)[C@H](OC(C)=O)[C@@H]1C | - | 32 clinical isolates | - | Geometric mean MIC | - | - | 3.2 µg/mL
CNc1ccc(C(N)=S)cc1 | - | - | - | MIC | - | - | 425 µM
O=C(O)[C@@]1(CCCCCCOc2ccc(Cl)cc2)CO1 | visual reading | H37Rv | - | MIC | - | - | >250 µM
CCCCNc1ccc(C(N)=S)cc1 | - | - | - | MIC | - | - | 350 µM
N#Cc1ccc(/C=N/N=C(\N)c2ccncc2)cc1 | - | 1054 | - | MIC | - | - | >256 µg/mL
CCCCCCCCCC(O)CC(=O)CCc1ccc(O)c(OC)c1 | - | H37Rv | - | MIC | - | - | 50 µg/mL
CCc1c2c(nc3ccc(OCc4ccc(F)c(F)c4)cc13)-c1cc3c(c(=O)n1C2)COC(=O)C3(O)CC | resazurin | XDR | - | MIC | Extensively drug-resistant | - | 12.06 µM
NNC(=O)c1ccncc1 | - | H37RV #301 | - | MIC | - | - | <0.5 µg/mL
COc1cc([C@@](O)(CCN(C)C)[C@@H](c2cc(-c3ccc(C)cc3)cnc2OC)c2cccc(OC)c2F)cc(OC)n1 | resazurin | H37Rv | - | MIC90 | - | - | 15.31 µM
O=C1OC2OC3OC(=O)C4C3CC2C14 | BACTEC | H37Rv | - | MIC | - | - | ≥12.5 µg/mL
NC(=S)c1ccc(NCc2ccccc2)cc1 | - | - | - | MIC | - | - | 175 µM
N/C(=N\N=C\c1ccc([N+](=O)[O-])cc1)c1ccncc1 | - | 1481 | - | MIC | - | - | >256 µg/mL
COc1cccc(Cn2cc(Cn3c4ccccc4c4ccccc43)nn2)c1 | agar | H37Rv | - | MIC | - | - | 12.5 µg/mL
Cc1cccc(NC(=O)c2cnccn2)c1 | resazurin | ATCC 27294 | - | MIC | - | - | >100 µg/mL
CCOC(=O)C(NC(=O)c1cccc(Cl)c1)(N1CCN(c2cc3c(cc2F)c(=O)c(C(=O)O)cn3CC)CC1)C(F)(F)F | resazurin | H37Rv | - | MIC | - | - | 6.25 µg/mL
O=C(/C=C/C=C/c1ccc2c(c1)OCO2)N1CCCCC1 | PCR | rif | - | MIC | - | - | >100 µg/mL
COc1ccc2nc3c(Cl)c(Cl)c(=O)c(Cl)c-3sc2c1 | BACTEC | H37Rv | - | MIC bound | - | - | >12.5 µg/mL
C[C@H]1COc2c(N3CCN(C)CC3)c(F)cc3c(=O)c(C(=O)O)cn1c23 | - | 10 strains | - | MIC90 | - | - | 1 µg/mL
COc1ccccc1NC(=O)C(/C=N/C(=S)NCCNc1ccc(OC)c(OC)c1)=C(/C)O | resazurin | H37Rv | 6.25 µg/mL | inhibition | - | - | -7%
CCOc1ccc2c(N/N=C/c3ccc(N(CC)CC)cc3)ccnc2c1 | - | H37Rv | - | MIC | - | VERO | 6.25 µg/mL

Repeating the final 7 entries:

smiles,method,strain,tested at,read-out,changes,cells,result
Cc1cccc(NC(=O)c2cnccn2)c1,resazurin,ATCC 27294,-,MIC,-,-,>100 µg/mL
CCOC(=O)C(NC(=O)c1cccc(Cl)c1)(N1CCN(c2cc3c(cc2F)c(=O)c(C(=O)O)cn3CC)CC1)C(F)(F)F,resazurin,H37Rv,-,MIC,-,-,6.25 µg/mL
O=C(/C=C/C=C/c1ccc2c(c1)OCO2)N1CCCCC1,PCR,rif,-,MIC,-,-,>100 µg/mL
COc1ccc2nc3c(Cl)c(Cl)c(=O)c(Cl)c-3sc2c1,BACTEC,H37Rv,-,MIC bound,-,-,>12.5 µg/mL
C[C@H]1COc2c(N3CCN(C)CC3)c(F)cc3c(=O)c(C(=O)O)cn1c23,-,10 strains,-,MIC90,-,-,1 µg/mL
COc1ccccc1NC(=O)C(/C=N/C(=S)NCCNc1ccc(OC)c(OC)c1)=C(/C)O,resazurin,H37Rv,6.25 µg/mL,inhibition,-,-,-7%
CCOc1ccc2c(N/N=C/c3ccc(N(CC)CC)cc3)ccnc2c1,-,H37Rv,-,MIC,-,VERO,6.25 µg/mL

Inhibition is in % at the dose shown (toxicity tests: loss of growth or viability). MIC bound comes from a single tested concentration. Conditions beyond the fields shown may differ between rows. Blank or dashed fields: not listed here.